## Library screen at single concentrations

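Phenotypic screen: M. tuberculosis growth, glucose 7H9 medium, 3 days; the read-out is not stated. Compounds at 50 µM. Higher reads as more growth inhibition (inferred: compounds with an IC50 in retests scored well above the rest). Of about 69,000 compounds tested this way, about 760 (1.1%) reached 50% or more in at least one test.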

Values are the deposited “Percent Effect”, in %.
The record does not define 0% and 100%; most values in the screen are far below 50% and negative numbers occur (in some assays of this library far below -100).
The entries come from a sample that favours strong results.
Two or more numbers in one place are separate tests of the same structure; such repeats can differ widely.

compound | Percent Effect
Cc1nc(C)c2c(n1)CCN(Cc1ccco1)CC2 | -4.32% and -1.183%
CN(C)S(=O)(=O)N1CCCC1CC(=O)c1cccs1 (configuration not stated) | 3.176%
Cc1ccc(C(=O)NCCCNS(C)(=O)=O)cc1-n1cccc1 | 14.07% and 4.882%
CCSCCNc1cc(C)nc2c(C)c(C)nn12 | 86.03%
COC[C@@H]1CCC[C@@]12CN(C(=O)N(C)C)CCO2 | -26.78%
CCn1nc(C)c(CNC(=O)c2nnc3ccc(Cl)cc3n2)c1C | 18.82%
CC(C)CC(NC(=O)Nc1ccc(F)c(Cl)c1)C(=O)O (configuration not stated) | 4.658% and 0.4043%
CCOc1cc(C(=O)n2cccn2)cc(OCC)c1OCC | 7.435% and 31.55%
Cc1c[nH]nc1C1CCCN(C(=O)c2c(C)noc2C)C1 (configuration not stated) | 19.3%
O=C(NCCN1CCCS1(=O)=O)c1scnc1Cl | 6.981%
Clc1ccccc1C1(c2ccnc(-c3ncccn3)n2)CCNCC1 | 13.68%
Cn1ccc(-c2cc(C(=O)N3CCCCC3)c3ccccn23)n1 | 11.3%
CCN(CC)CCn1cnc(-c2ccccc2)c1-c1ncc[nH]1 | -4.87% and 95.17%
CC(C)c1noc(CN2CCN(C(=O)c3ccccc3F)CC2)n1 | -12.49%
COc1ccc(CS(=O)(=O)CC(=O)NCC2CC2)cc1F | 11.13% and 9.967%
CN(C)c1nc2c(c(N3CCc4c(c(CO)nn4C)C3)n1)CCNC2 | -52.64%
Clc1cc(CN2CCCN3CCCC3C2)c2ncccc2c1 (configuration not stated) | 72.17%
Cc1noc(NC(=O)c2ccc(C#N)cc2)n1 | 7.107%
Cc1ccc(CN(CCCn2ccnc2)Cc2cccs2)s1.O=C(O)CC(O)(CC(=O)O)C(=O)O | 65.26%
Cc1noc(NC(=O)c2cccc(Br)c2)n1 | 88.85%
COc1ncc(C)cc1NC(=O)COc1ccccc1F | -2.139% and 0.2997%
Cc1ccc(N2CCC(c3[nH]ncc3Cc3ccccc3)CC2)nn1 | 23.96%
Cc1c(-c2cc(C(F)(F)F)nc(N3CCC(N)CC3)n2)cnn1C | 12.62% and -26.15%
CCc1ccc(CN2CCC3(CCCN(C(=O)N(C)C)C3)C2)o1 (configuration not stated) | -0.4561% and -12.96%
Cc1ccsc1CN1CCc2nc3ccsc3c(=O)n2CC1.Cl | 23.64%
COc1cccc(-c2noc(-c3ccc(NCC(C)C)nc3)n2)c1OC | 7.029%
Cc1cccnc1N1CCN(C(=O)C(C)n2ccnc2C(C)C)CC1 (configuration not stated) | -0.07039% and -25.8%
O=C(c1c[nH]c2ccccc2c1=O)N1CCSCC1 | 98.72%
CCOc1ccc(Cl)cc1CCNC(=O)c1ccc(=O)n(C)c1 | -25.67%
Cc1cc(C(O)CCNS(=O)(=O)c2ccc(Cl)s2)c(C)o1 (configuration not stated) | 10.29%
Cc1ccc(C(=O)NCCNC(=O)c2cncnc2C(C)C)cc1F | -10.79%
CCS(=O)(=O)N1CCC2(CCCN(Cc3ccc(F)c(F)c3)C2=O)C1 (configuration not stated) | -6.111%
Cc1nc(CNCC2CN(C3CC3)CCO2)cs1 (configuration not stated) | -16.44%
Cc1ccccc1-n1c(C)cc(=O)[nH]c1=O | -9.919%
COc1ncc(C)cc1NC(=O)COCC(F)(F)F | -10.79% and 0.2054%
CC(=O)Nc1cc2c(cc1C)OCO2 | -3.817% and -31.09%
Cc1cnn(CCNCC(O)COc2ccc(Cl)cc2Cl)c1 (configuration not stated) | 2.773%
Fc1ccc(CN[C@@H]2COC[C@H]2c2ccc(F)cc2)cc1.O=C(O)CC(O)(CC(=O)O)C(=O)O | 8.334%
COc1ccccc1-n1c(C)cc(CNC(=O)NC(C)C)c1C | -7.408%
COc1ccccc1OCCNC(=O)NCC(C)C | -16.65% and 0.8066%
CCc1c(C)sc(NC(=O)CN2CCOCC2)c1C(=O)OC | 35.31%
Cc1cc(NCCC(=O)NC2CCCC2)nc(-c2ccncc2)n1 | 0.8916%
Fc1cccc(Cc2cncc(C3CCCN3C3CCOCC3)n2)c1 (configuration not stated) | 5.995%
CN(C)CC(=O)N1CCC2(CCc3cc(-c4cccnc4)ccc32)CC1.O=C(O)C(F)(F)F.O=C(O)C(F)(F)F | 41.98% and 46.32%
CN(C)S(=O)(=O)NC(=O)CC(c1ccccc1)C(F)(F)F (configuration not stated) | -27.21%
CS(=O)(=O)N1CC[C@H](c2nc3ccc(C(F)(F)F)cc3[nH]2)C1 | 28.21% and 19.41%
Cc1cc(C)n(CC(C)NC(=O)C2(c3ccccc3F)CC2)n1 (configuration not stated) | -14.26%
CCN1CCN(c2ccc(C(=O)NC(C)C(=O)N(C)C)cc2)CC1 (configuration not stated) | -12.21%
COc1cc(OC)cc(-c2noc(CC(N)c3ccccc3)n2)c1 (configuration not stated) | 14.5% and 3.972%
COc1ccc(CN2CCc3nc4ccsc4c(=O)n3CC2)c(C)c1C | -3.322%
CC[C@H](C)[C@@H](CO)NC(C)Cc1ccc(F)cc1 (some centres not stated) | 10.15%
c1cc(CN2CCOC3(CCCC3)C2)no1 | -3.683% and -5.545%
COc1ccc(-c2ccccc2CCN)c(OC)c1 | 47.37% and 61.82%
Cc1ccc(CN(CCCn2ccnc2)Cc2[nH]cnc2C)s1.O=C(O)CC(O)(CC(=O)O)C(=O)O | 1.074%
Cc1cccc(-c2noc([C@@H]3Cc4nc[nH]c4CN3)n2)c1 | 41.68% and 51.53%
CN(Cc1ccccc1F)C(=O)c1cc(Cl)c[nH]1 | 22.62%
O=C(O)C(F)(F)F.OCCN1CCC2(CCc3cc(-c4ccoc4)ccc32)CC1 | 51.75% and 45.47%
NCC1CN(c2nc(-c3ccccc3)nc3c2CCNCC3)CCO1 (configuration not stated) | 52.9%
Cc1ccc(N2CCCN(C(=O)CC3C=CCC3)CC2)nn1 (configuration not stated) | 0.232% and 7.806%
O=C(c1cncc2ccccc12)N1CCC[C@@H]1CO | 8.602%
COc1ccccc1CN(C)C(=O)CN1CC(n2nc(C)cc2C)C1 | 58.78%
CN(C)c1cccc(CNC(=O)Nc2ccc3[nH]nnc3c2)n1 | -3.718% and -6.975%
Cc1cc(NC(=O)C(C)Cn2cc(Br)cn2)no1 (configuration not stated) | 19.82%
Cn1cc(-c2cc(C(=O)N3CCOCC3)c3ccc(F)cc3n2)cn1 | -27.15%
COc1cccc(C2CC(=O)Nc3nc(N4CCOCC4)sc32)c1OC (configuration not stated) | 25.21% and 40.28%
COc1ccc(C2=NOC(CC#N)C2)cc1 (configuration not stated) | 9.932%
O=C(Nc1ccccn1)NC(CCCO)c1ccccc1 (configuration not stated) | -13.7%
Cc1cccc(NC2CCN(C(=O)Nc3cc(F)cc(F)c3)CC2)n1 | 32.84%
Cc1ccccc1-c1cc(C(=O)NCCN2CCCS2(=O)=O)[nH]n1 | 4.46%
O=C(NCCO)Nc1c(F)cc(F)cc1-c1ccccc1 | 3.894%

For reference, 5 entries once more:

* CC(C)CC(NC(=O)Nc1ccc(F)c(Cl)c1)C(=O)O (configuration not stated) | 4.658% and 0.4043%
* CC(=O)Nc1cc2c(cc1C)OCO2 | -3.817% and -31.09%
* Cc1cnn(CCNCC(O)COc2ccc(Cl)cc2Cl)c1 (configuration not stated) | 2.773%
* O=C(Nc1ccccn1)NC(CCCO)c1ccccc1 (configuration not stated) | -13.7%
* Cc1ccc(CN(CCCn2ccnc2)Cc2[nH]cnc2C)s1.O=C(O)CC(O)(CC(=O)O)C(=O)O | 1.074%

Measurements from “University of Dundee, Small-Polar-MMV Screening Library” (2021), ChEMBL document CHEMBL3988442.